Results of unrelated studies side by side (data: NIAID ChemDB).

Common to all: growth or infection tests; species: HIV-1; cells: MT-4; endpoint: EC95

a–b is a range or a potency band. ECn is the concentration giving n% inhibition of infection, replication or growth. Blank or dashed fields: not listed here. Rows are shuffled and stem from different studies.

structure | strain or isolate | mutations | read by | conditions | result
Cc1cc(C)c(-n2nnnc2SCC(=O)Nc2ccc(S(N)(=O)=O)cc2)c(C)c1 | - | - | p24 | 50% human serum | >5 µM
CCc1cc(CCc2nc3c(F)cccc3o2)c(=O)[nH]c1C | IIIB | - | p24 | - | 0.375 µM
Cc1ccncc1-c1ccc(C[C@H](C[C@H](O)CN2CCN(Cc3ccc(-c4ccc(Cl)cc4)o3)C[C@H]2C(=O)NCC(F)(F)F)C(=O)N[C@H]2c3ccccc3OC[C@H]2O)o1 | 4X (PR M46I L63P V82T I84V) | PR-M46I L63P V82T I84V | p24 | - | 0.0313 µM
O=C(O)C(=O)CC(=O)c1cccc(Cc2ccccc2)c1 | IIIB | - | p24 | - | 0.8 µM
CN1CCOCC1c1nc(C(=O)NCCc2ccccc2)c(O)c(=O)n1C | IIIB | - | p24 / ELISA | 50% human serum | >8 µM
CCc1cc(NCc2nc3c(C)ccc(C)c3o2)c(=O)[nH]c1C | IIIB | - | p24 | - | 0.025–0.05 µM
CN1CCS(=O)CC1c1nc(C(=O)NCc2ccc(F)cc2)c(O)c(=O)n1C | IIIB | - | p24 / ELISA | 10% FBS | >1 µM
Cc1cc(C)c(-n2nnnc2SCC(=O)Nc2ccc(C(=O)NCCCN(C)C)cc2Cl)c(C)c1 | - | - | p24 | 50% human serum | 0.062 µM
CCNC(=O)N1CCN(C)C(c2nc(C(=O)NCc3ccc(F)cc3)c(O)c(=O)n2C)C1 | IIIB | - | p24 / ELISA | 50% human serum | >1 µM
CC(C)(C)NC(=O)[C@@H]1C[C@@H]2CCCC[C@@H]2CN1C[C@@H](O)[C@H](Cc1ccccc1)NC(=O)[C@@H](NC(=O)c1ccc2ccccc2n1)[C@H]1CCSC1 | IIIB | - | p24 | - | 0.05 µM
CC(C)c1nc(CN(C)C(=O)N[C@H](C(=O)N[C@@H](Cc2ccccc2)C[C@H](O)[C@H](Cc2ccccc2)NC(=O)OCc2cncs2)C(C)C)cs1 | PR-WT | - | p24 | - | 0.1–0.4 µM
O=C(O)C(=O)CC(=O)c1cccn1Cc1ccccc1 | IIIB | - | p24 | - | 32 µM
CC(C)=CCN1Cc2cc(Cl)cc3[nH]c(=S)n(c23)C[C@@H]1C | - | RT-D67N K70R T215Y K219Q L100I | - | - | >3 µM
CC(C)CN(C[C@@H](O)[C@H](Cc1ccccc1)NC(=O)[C@H](CC(N)=O)NC(=O)c1ccc2ccccc2n1)C(=O)NC(C)(C)C | PR-WT | - | p24 | - | 0.05–0.2 µM
Cc1cc(C)c(-n2nnnc2SCC(=O)Nc2ccccc2OC(F)F)c(C)c1 | - | - | p24 | - | <10 µM
CN1C[C@H](OCc2ccccc2)C[C@H]1c1nc(C(=O)NCc2ccc(F)cc2)c(O)c(=O)n1C | IIIB | - | p24 / ELISA | 10% FBS | <0.08 µM
CCc1cc(CCc2nc3ccccc3o2)c(=O)[nH]c1C | - | - | p24 | - | 0.1 µM
O=C(N[C@H]1c2ccccc2OC[C@H]1O)[C@H](Cc1cc2ccncc2o1)C[C@H](O)CN1CCN(Cc2ccc(-c3ccc(Cl)cc3)o2)C[C@H]1C(=O)NCC(F)(F)F | NL4-3 | - | p24 | - | <0.0078 µM
Cc1cc(C)c(-n2nnnc2SCC(=O)Nc2c(Cl)cccc2Cl)c(C)c1 | - | - | p24 | 10% FBS | >5 µM
CC(C)c1ccccc1-n1nnnc1SCC(=O)Nc1ccccc1Cl | - | - | p24 | - | <10 µM
CC(C)(c1ncc(-c2ccc(Cl)cc2)o1)N1CCN(C[C@@H](O)C[C@@H](Cc2cc3c(Cl)cncc3s2)C(=O)N[C@H]2c3ccccc3OC[C@H]2O)[C@H](C(=O)NCC(F)(F)F)C1 | 4X (PR M46I L63P V82T I84V) | PR-M46I L63P V82T I84V | p24 | - | <0.0078 µM
CCc1cc(NCc2nc3c(Cl)ccc(Cl)c3o2)c(=O)[nH]c1C | RUTZ | - | p24 | - | 0.1 µM
O=C(N[C@H]1c2ccccc2OCC1O)[C@H](Cc1cccnc1)C[C@H](O)CN1CCN(Cc2ccc(-c3ccccc3)o2)C[C@H]1C(=O)NCC(F)(F)F | V-18C Clinical isolate | PR-L10I M36I N37D M46I R57K L63P A71V G73S I84V L90M I93L | p24 | - | ≤0.008 µM
CC(C)(c1ncc(-c2ccc(Cl)cc2)s1)N1CCN(C[C@@H](O)C[C@@H](Cc2cc3cnccc3s2)C(=O)N[C@H]2c3ccccc3OC[C@H]2O)[C@H](C(=O)NCC(F)(F)F)C1 | NL4-3 | - | p24 | - | <0.0078 µM
CN1CCS(=O)(=O)CC1c1nc(C(=O)NCc2ccc(F)cc2)c(O)c(=O)n1C | IIIB | - | p24 / ELISA | 10% FBS | >1 µM
Cc1cc(C)c(-n2nnnc2SCC(=O)Nc2ccc([N+](=O)[O-])cc2)c(C)c1 | - | - | p24 | 50% human serum | >5 µM
CC(C)(c1ncc(-c2ccc(Cl)cc2)o1)N1CCN(C[C@@H](O)C[C@@H](Cc2cc3ccncc3o2)C(=O)N[C@H]2c3ccccc3OC[C@H]2O)[C@H](C(=O)NCC(F)(F)F)C1 | NL4-3 | - | p24 | - | 0.0078 µM
Cn1c(C2COCCN2)nc(C(=O)NCc2ccc(F)cc2)c(O)c1=O | IIIB | - | p24 / ELISA | 10% FBS | >1 µM
Cc1cc(C)c(-n2nnnc2SCC(=O)Nc2ccc(Cl)cc2[N+](=O)[O-])c(C)c1 | - | - | p24 | - | <10 µM
Cc1cc(C)c(-n2nnnc2SCC(=O)Nc2ccc([N+](=O)[O-])cc2C)c(C)c1 | - | - | p24 | 10% FBS | 1.25 µM
CCc1cc(CCc2nc3c(F)ccc(F)c3o2)c(=S)[nH]c1C | IIIB | - | p24 | - | 0.15 µM
Cc1cc(C)c(-n2nnnc2SCC(=O)Nc2cccc3c2C(=O)NC3=O)c(C)c1 | - | - | p24 | - | <10 µM